According to article PMC6213309 (International Journal of Molecular Sciences, 2018):

Experiment: peptide made by a vendor
Settings: whole synthesis, analytical reverse-phase HPLC

Row | Substance | final HPLC purity [%]
1 | FWRRWQWRRRWF-NH2 | 97.31
2 | PEPTIDE1{K.W.R.R.W.Q.W.R.R.W.K.[am]}$$$$V2.0 | 96.94
3 | PEPTIDE1{F.P.R.R.W.Q.W.R.R.P.F.[am]}$$$$V2.0 | 97.58
4 | PEPTIDE1{K.K.R.R.W.Q.W.R.R.K.K.[am]}$$$$V2.0 | 95.21
5 | PEPTIDE1{K.C.R.R.W.Q.W.R.M.K.K.[am]}$$$$V2.0 | 95.81

HELM strings list residues between dots; [ac] is acetyl, [am] amide, other brackets name non-standard units.
